# Patent US20120329731A1 (priority 2006, published 2012)
# Tested on: cyanide poisoning
# Conditions: for Protective Indices compared with the combination of nitrite and thiosulfate: i.p., 5 min pre- and post-cyanide, compounds 0.29 mmol/kg vs N/T 1.45/6.32 mmol/kg; for antidotal activity when administered by the oral route: oral gavage, 5 minutes pre- and post-CN, mouse
# [1] = i.p. 5 min post-CN (4.8 mg/kg), prodrugs 0.29 mmol/kg, N/T 1.45/6.32 mmol/kg, H 0.217 mmol/kg
# [2] = i.p. 5 min pre-CN (4.8 mg/kg i.p.), prodrugs 0.29 mmol/kg, N/T 1.45/6.32 mmol/kg, H 0.217 mmol/kg
# [3] = i.p. 5 min pre-CN (4.8 mg/kg), prodrugs 0.29 mmol/kg, N/T 1.45/6.32 mmol/kg, H 0.217 mmol/kg
# [4] = i.p. 30 min pre-CN (4.8 mg/kg), prodrugs 1, 3, 4 at 0.58 mmol/kg, PD 2 0.29 mmol/kg, N/T 1.45/6.32 mmol/kg, H 0.217 mmol/kg
# [5] = oral gavage 5 min post-CN (4.8 mg/kg), prodrugs 0.29 mmol/kg
# [6] = oral gavage 5 min pre-CN (4.8 mg/kg), prodrugs 0.29 mmol/kg
# [7] = oral gavage 30 min pre-CN (4.8 mg/kg), 1.45 mmol/kg (Table 7)
# [8] = oral gavage 60 min pre-CN (4.8 mg/kg), 1.45 mmol/kg
Substance,% S (percent survivors) [1] [%],P.I. (protective index) [1],Screen Righting Time (Ave ± SE) [1] [min],Screen Righting Time (Ave ± SE) [2] [min],% S (percent survivors) [3] [%],P.I. (protective index: recovery time CN-treated / recovery time PD-treated) [3],% S (percent survivors) [4] [%],P.I. (protective index) [4],Screen Righting Time (Ave ± SE) [4] [min],Protective Indices compared with the combination of nitrite and thiosulfate,% S (percent survivors) [5] [%],P.I. (protective index) [5],Screen Righting Time (Ave ± SE) [5] [min],% S (percent survivors) [6] [%],P.I. (protective index) [6],Screen Righting Time (Ave ± SE) [6] [min],% S (percent survivors) [7] [%],P.I. (protective index) [7],Screen Righting Time (Ave ± SE) [7] [min],antidotal activity when administered by the oral route,further results
2-Carbethoxy-2-mercaptomethyl-L-thiazolidine-4-carboxylic acid,100,1.4,42.8 ± 4.0,42.5 ± 3.4,100,1.6,100,1.3,54.0 ± 5.2,generally superior,100,1.6,37.5 ± 3.8,100,2.2,29.1 ± 4.4,100,2.1,33.5 ± 1.3,retain their antidotal activity,% S (percent survivors) [8]: 100%; P.I. (protective index) [8]: 2.0; Screen Righting Time (Ave ± SE) [8]: 35.3 ± 1.6 min
"(E)-O,S-Diacetyl-2-hydroxyl-3-mercapto-2-propenoic acid",100,1.7,36.9 ± 4.1,8.7 ± 1.2,100,7.6,100,1.9,36.0 ± 1.6,generally superior,100,1.6,39.0 ± 7.4,100,3.2,20.4 ± 2.8,100,2.8,24.6 ± 3.9,retain their antidotal activity,
"Ethyl-(E)-O,S-Diacetyl-2-hydroxyl-3-mercapto-2-propenate",100,2.3,27.0 ± 3.6,10.3 ± 1.3,100,6.4,100,2.1,33.3 ± 2.7,generally superior,100,3.4,17.8 ± 4.1,100,2.1,30.4 ± 4.2,100,5.4,13.0 ± 4.1,retain their antidotal activity,% S (percent survivors) [8]: 100%; P.I. (protective index) [8]: 2.1; Screen Righting Time (Ave ± SE) [8]: 33.9 ± 2.2 min

# Like-named read-outs stand apart in the source and are kept apart here.
